Pooled drug test results. Numbers come from NIAID ChemDB, via PubChem.

Common to all: growth or infection tests; species: Candida albicans; read-out: MIC

Neighbouring rows are from separate reports.

O[C@@](Cn1cncn1)(c1ccc(F)cc1)[C@@H](OCC(F)(F)F)n1cncn1 ; value: >100 µg/mL
C[C@H](n1nnc(CCN2CCN(c3ccccc3)CC2)n1)[C@](O)(Cn1cncn1)c1ccc(F)cc1F ; value: 8 µg/mL
CO[C@@H](n1cncn1)[C@](O)(Cn1ccnc1)c1ccc(Cl)cc1 ; value: >100 µg/mL
CN(CCCC#CC(C)(C)C)c1cccc2c1CCC(=O)N2 ; strain or isolate: Clinical isolate 9 ; value: 31.25 µg/mL
CO[C@@H](n1cncn1)[C@](O)(Cn1cccn1)c1ccc(Cl)cc1 ; value: >100 µg/mL
CCCCCOc1ccc(-c2ccc(-c3ccc(CN[C@H]4CCCNC(=O)[C@@H]5C[C@H](N)CN5C(=O)[C@H]([C@@H](C)O)NC(=O)[C@H](CCc5ccc(O)cc5)NC(=O)[C@@H]5C[C@@H](O)CN5C(=O)[C@H]([C@@H](C)O)NC4=O)cc3)cc2)cc1 ; strain or isolate: ATCC 38247 ; value: 0.2 µg/mL
C[C@H](n1nnc(CCN2CCN(C(c3ccccc3)c3ccccc3)CC2)n1)[C@](O)(Cn1cncn1)c1ccc(F)cc1F ; strain or isolate: V-01-191A-261 (resistant) ; value: 4 µg/mL
Cc1c(Cl)[n+](=O)c2cc(Cl)ccc2n1[O-] ; strain or isolate: Clinical isolate 7 ; value: 7.8 µg/mL
CS[C@@H](n1cncn1)[C@](O)(Cn1cncn1)c1ccc(Cl)cc1Cl ; value: >100 µg/mL
CCCCCCCCCCCC(=O)NC(CCCN)C(=O)NC(CCCN)C(=O)NC(CCCN)C(=O)NC(CCCN)C(=O)NC(CCCN)C(N)=O ; strain or isolate: ATCC 24433 ; read by: broth dilution ; value: 12.5 µg/mL
C[C@H](n1nnc(CCN2CCN(c3cccc(C(F)(F)F)c3)CC2)n1)[C@](O)(Cn1cncn1)c1ccc(F)cc1F ; strain or isolate: V-01-191A-261 (resistant) ; value: 0.5 µg/mL
O=[n+]1c(Sc2ccccc2)c(CBr)n([O-])c2ccccc21 ; strain or isolate: Clinical isolate 4 ; value: 15.6 µg/mL
CCCCCCCCOc1ccc(N2CCN(c3ccc(C(=O)N[C@H]4CCCNC(=O)[C@@H]5C[C@H](N)CN5C(=O)[C@H]([C@@H](C)O)NC(=O)[C@H](CCc5ccc(O)cc5)NC(=O)[C@@H]5C[C@@H](O)CN5C(=O)[C@H]([C@@H](C)O)NC4=O)cc3)CC2)cc1 ; strain or isolate: ATCC 10231 ; value: 0.2 µg/mL
CCCCc1ccccc1N1CCN(CCc2nnnn2[C@@H](C)[C@](O)(Cn2cncn2)c2ccc(F)cc2F)CC1 ; value: 0.5 µg/mL
CCCCCOc1ccc(-c2ccc(-c3ccc(C(=O)N[C@H]4CCCNC(=O)[C@@H]5C[C@H](N)CN5C(=O)[C@H](CC)NC(=O)[C@H](CCc5ccc(O)cc5)NC(=O)[C@@H]5C[C@@H](O)CN5C(=O)[C@H]([C@@H](C)O)NC4=O)cc3)cc2)cc1 ; strain or isolate: ATCC 10231 ; value: 0.1 µg/mL
C[C@H](n1nnc(CCN2CCN(c3cccc(Cl)c3)CC2)n1)[C@](O)(Cn1cncn1)c1ccc(F)cc1F ; strain or isolate: V-01-191A-261 (resistant) ; value: 4 µg/mL
CCCCCCCCCC(=O)NC(CCCN)C(=O)NC(CCCN)C(=O)NC(CCCN)C(=O)NC(CCCN)C(N)=O ; strain or isolate: ATCC 24433 ; read by: broth dilution ; value: >100 µg/mL
COc1ccc(C[C@H](N)C(=O)N[C@H]2[C@@H](O)[C@H](n3cnc4c(N)ncnc43)O[C@@H]2C(=O)O)cc1 ; strain or isolate: FP-616 ; value: 0.2 µg/mL
CCCCCCCCCCCCCCCC(=O)NC(CCCN)C(N)=O ; strain or isolate: ATCC 24433 ; read by: broth dilution ; value: >100 µg/mL
Cc1c(S(=O)(=O)c2ccccc2)[n+](=O)c2cc(Cl)ccc2n1[O-] ; strain or isolate: Clinical isolate 1 ; value: 62.5 µg/mL
C[C@H](n1nnc(CCN2CCN(c3ccccc3Cl)CC2)n1)[C@](O)(Cn1cncn1)c1ccc(F)cc1F ; strain or isolate: V-01-191A-261 (resistant) ; value: 4 µg/mL
CCCCCCCCCCCCCCCC(=O)NC(CCCN)C(=O)NC(CCCN)C(=O)NC(CCCN)C(=O)NC(CCCN)C(=O)NC(CCCN)C(N)=O ; strain or isolate: ATCC 24433 ; read by: broth dilution ; value: 6.25 µg/mL
C[C@H](n1nnnc1CCN1CCN(c2ccccc2Cl)CC1)[C@](O)(Cn1cncn1)c1ccc(F)cc1F ; strain or isolate: V-01-191A-261 (resistant) ; value: 4 µg/mL
CCCCCCCCCC(=O)NC(CCCN)C(=O)NC(CCCN)C(N)=O ; strain or isolate: ATCC 24433 ; read by: broth dilution ; value: >100 µg/mL
CCCCCOc1ccc(-c2ccc(-c3ccc(C(=O)N[C@H]4CCCNC(=O)[C@@H]5C[C@H](N)CN5C(=O)[C@H](CCCN)NC(=O)[C@H](CCc5ccc(O)cc5)NC(=O)[C@@H]5C[C@@H](O)CN5C(=O)[C@H]([C@@H](C)O)NC4=O)cc3)cc2)cc1 ; strain or isolate: ATCC 10231 ; value: 0.39 µg/mL
CO[C@@H](n1cccn1)[C@](O)(Cn1ccnc1)c1ccc(Cl)cc1 ; value: >100 µg/mL
COc1ccccc1N1CCN(CCc2nnn([C@@H](C)[C@](O)(Cn3cncn3)c3ccc(F)cc3F)n2)CC1 ; value: 8 µg/mL
CCCCCOc1ccc(-c2ccc(-c3ccc(C(=O)N[C@H]4CCCNC(=O)[C@@H]5C[C@H](N)CN5C(=O)[C@H](CO)NC(=O)[C@H](CCc5ccc(O)cc5)NC(=O)[C@@H]5C[C@@H](O)CN5C(=O)[C@H]([C@@H](C)O)NC4=O)cc3)cc2)cc1 ; strain or isolate: ATCC 38247 ; value: 0.2 µg/mL

Repeating the final 2 entries:

smiles	strain or isolate	read by	value
COc1ccccc1N1CCN(CCc2nnn([C@@H](C)[C@](O)(Cn3cncn3)c3ccc(F)cc3F)n2)CC1			8 µg/mL
CCCCCOc1ccc(-c2ccc(-c3ccc(C(=O)N[C@H]4CCCNC(=O)[C@@H]5C[C@H](N)CN5C(=O)[C@H](CO)NC(=O)[C@H](CCc5ccc(O)cc5)NC(=O)[C@@H]5C[C@@H](O)CN5C(=O)[C@H]([C@@H](C)O)NC4=O)cc3)cc2)cc1	ATCC 38247		0.2 µg/mL

An empty or dashed field is not shown.